Results of unrelated studies side by side (data: NIAID ChemDB).

All rows: tests in culture; species: Human cytomegalovirus

Percent inhibition refers to the dose given; in toxicity tests it is the harm to the cells. Blank or dashed fields: not listed here. ECn is the concentration giving n% inhibition of infection, replication or growth. Lines come from different laboratories, so protocols vary.

structure,strain or isolate,cells,method,read-out,tested at,result
Nc1ncnc2c1ncn2[C@@H]1O[C@H](CO)[C@@H](O)[C@@H]1O,,HEL,plaque count,inhibition,1 µM,24.2%
CC(C)Nc1nc2cc(Cl)c(Cl)cc2n1[C@H]1O[C@@H](CO)[C@H](O)[C@@H]1O,AD169,HFF,virus yield,EC90,,0.19 µM
CN(C)c1cccc2c(S(=O)(=O)Nc3ccc(NC(=O)C(C)(C)CO)cc3)cccc12,AD169,HFF,virus yield,EC90,,0.7 µM
O=C(NCc1ccc(Cl)cc1)c1c[nH]c2ccc(C#CCO)cc2c1=O,AD169,,plaque count,EC90,,2.7 µM
CCCCCCCCCCCCCCCCOCCCOP(=O)(O)CO[C@H](CO)Cn1ccc(N)nc1=O,C9208/5-4-2,MRC-5,plaque count,EC50,,0.00085 µM
Nc1nc2c(ncn2COC(CO)CO)c(=O)[nH]1,TOWNE,HFF,virus yield,EC90,,4 µM
Nc1ccn(C[C@@H](CO)OCP(=O)(O)O)c(=O)n1,GDGP53 (drug-resistant mutant),MRC-5,plaque count,EC50,,15.7 µM
OC[C@H]1O[C@@H](n2c(Br)nc3cc(Cl)c(Cl)cc32)[C@H](O)[C@@H]1O,TOWNE,HFF,virus yield,EC90,,0.41 µM
Clc1ccc(Nc2ncnc3ccccc23)cc1Cl,AD169-GFP,HFF,plaque count,inhibition,1.1 µM,25%
O=c1[nH]c(=O)n([C@H]2C[C@H](O)[C@@H](CO)O2)cc1/C=C/Br,,HEL,plaque count,inhibition,75 µM,53%
COc1cccc(N2CCN(C3=Nc4c(F)cccc4[C@H](CC(=O)O)N3c3cc(C(F)(F)F)ccc3OC)CC2)c1,Clinical isolate 16,,plaque count,EC50,,0.0031 µM
O=C(NCc1ccc(Cl)cc1)c1c[nH]c2ccc(CCCO)cc2c1=O,HAR,,plaque count,EC50,,0.6 µM
OC[C@H]1O[C@@H](n2c(Br)nc3cc(Cl)c(Cl)cc32)[C@H](O)[C@@H]1O,C4 (BDCRB-resistant),HFF,virus yield,EC90,,23 µM
Nc1ccn(C[C@H]2COP(=O)(O)CO2)c(=O)n1.O=C(O)P(=O)(O)O,AD169 (ganciclovir foscarnet-susceptible),MRC-5,plaque count,EC75,,0.93 µM
OC[C@H]1O[C@@H](n2c(Br)nc3cc(Cl)c(Cl)cc32)[C@H](O)[C@@H]1O,D10 (D341E),,virus yield,EC50,,<2 µM
OC[C@H]1O[C@@H](n2c(Br)nc3cc(Cl)c(Cl)cc32)[C@H](O)[C@@H]1O,8702REC2 (ALA594VAL),MRC-5,hybridisation,EC50,,0.75 µM
CCCCCCCCCCCCCCCCCCOCCOP1(=O)CO[C@@H](Cn2ccc(N)nc2=O)CO1,GDGP53 (drug-resistant mutant),MRC-5,plaque count,EC50,,0.05 µM
O[C@@H]1[C@H](O)CO[C@H]1n1c(Cl)nc2cc(Cl)c(Cl)cc21,TOWNE,HFF,virus yield,EC90,,0.46 µM
Nc1nc2c(ncn2COC(CO)CO)c(=O)[nH]1,PC92 (ganciclovir- foscarnet-susceptible),MRC-5,plaque count,EC75,,3.49 µM
CC(C)Nc1nc2cc(Cl)c(Cl)cc2n1[C@H]1O[C@@H](CO)[C@H](O)[C@@H]1O,C9003,MRC-5,hybridisation,EC50,,0.12 µM
O=C(NCc1ccc(Cl)cc1)c1c[nH]c2c(F)cccc2c1=O,DAVIS,,virus yield,EC90,,>50 µM
Cn1cc(C(=O)NCc2ccc(Cl)cc2)c(=O)c2cc(CN3CCOCC3)ccc21,PH,HFF,plaque count,inhibition,5.2 µM,90%
Nc1ncnc2c1ncn2C=C1CC1CO,VR6264 (ganciclovir-resistant),,plaque count,EC50,,0.6 µM
Nc1ccn(C[C@H]2COP(=O)(O)CO2)c(=O)n1,AD169 (ganciclovir foscarnet-susceptible),MRC-5,plaque count,EC75,,0.76 µM

2 of the rows above, restated:

structure | strain or isolate | cells | method | read-out | tested at | result
OC[C@H]1O[C@@H](n2c(Br)nc3cc(Cl)c(Cl)cc32)[C@H](O)[C@@H]1O | TOWNE | HFF | virus yield | EC90 |  | 0.41 µM
CCCCCCCCCCCCCCCCCCOCCOP1(=O)CO[C@@H](Cn2ccc(N)nc2=O)CO1 | GDGP53 (drug-resistant mutant) | MRC-5 | plaque count | EC50 |  | 0.05 µM